From US20050267156A1, “Broadspectrum 2-amino-benzothiazole sulfonamide hiv protease inhibitors” (Tibotec Pharmaceuticals Ltd., priority 2002, published 2005)

Experiments:
Format in all cases: cell-based
[1] = tested on: mutant HIV strain E; settings: FR=EC50 (mutant strain)/EC50 (HIV-1 strain LAI)
Description: (§1) HIV- or mock-infected MT4 cells were incubated for five days in the presence of various concentrations of the inhibitor. […] Cell viability is measured by measuring the concentration of MTT, a yellow, water soluble tetrazolium dye that is converted to a purple, water insoluble formazan in the mitochondria of living cells only. Upon solubilization of the resulting formazan crystals with isopropanol, the absorbance of the solution is monitored at 540 nm. The values correlate directly to the number of living cells remaining in the culture at the completion of the five-day incubation. The inhibitory activity of the compound was monitored on the virus-infected cells and was expressed as EC50 and EC90. These values represent the amount of the compound required to protect 50% and 90%, respectively, of the cells from the cytopathogenic effect of the virus. […] The selectivity index (SI) (ratio CC50/EC50) is an indication of the selectivity of the anti-HIV activity of the inhibitor. Wherever results are reported as e.g. pEC50 or pCC50 values, the result is expressed as the negative logarithm of the result expressed as EC50 or CC50 respectively.

[2] = tested on: mutant HIV strain D; settings: FR=EC50 (mutant strain)/EC50 (HIV-1 strain LAI)
Description: as §1

[3] = tested on: mutant HIV strain B; settings: FR=EC50 (mutant strain)/EC50 (HIV-1 strain LAI)
Description: as §1

[4] = tested on: mutant HIV strain C; settings: FR=EC50 (mutant strain)/EC50 (HIV-1 strain LAI)
Description: as §1

[5] = tested on: mutant HIV strain A; settings: FR=EC50 (mutant strain)/EC50 (HIV-1 strain LAI)
Description: as §1

[6] = tested on: mutant HIV strain F; test: microbe, parasite or virus in culture; settings: for fold resistance Strain F: FR=EC50 (mutant strain)/EC50 (HIV-1 strain LAI)
Description: as §1

SMILES | fold resistance Strain E [1] | fold resistance Strain D [2] | fold resistance Strain B [3] | fold resistance Strain C [4] | fold resistance Strain A [5] | fold resistance Strain F [6] | EC50 ([6]; Human immunodeficiency virus 1, MT4, read-out: pEC50 Strain F, mutant HIV strain F, MT4 cells (converted)) [µM]
CNc1nc2ccc(S(=O)(=O)N(CC(C)C)C[C@@H](O)[C@H](Cc3ccccc3)NC(=O)OCc3cncs3)cc2s1 [Compound 18, {(1S,2R)-1-benzyl-2-hydroxy-3-[isobutyl-(2-methylamino-benzothiazole-6-sulfonyl)-amino]-propyl}-carbamic acid thiazol-5-ylmethyl ester] | 4.8 | 11.2 | 3.2 | 3.9 | 16.2 | 77.6 | 
CNc1nc2ccc(S(=O)(=O)N(CC(C)C)C[C@@H](O)[C@H](Cc3ccccc3)NC(=O)OCc3cncs3)cc2s1.O=C(O)C(F)(F)F [Compound 19, {(1S,2R)-1-benzyl-2-hydroxy-3-[isobutyl-(2-methylamino-benzothiazole-6-sulfonyl)-amino]-propyl}-carbamic acid thiazol-5-ylmethyl ester trifluoroacetate] | 4.1 | 12.0 | 5.1 | 4.3 | 14.1 | 51.3 | 
CNc1nc2ccc(S(=O)(=O)N(CC(C)C)C[C@@H](O)[C@H](Cc3ccccc3)NC(=O)c3cccc(N)c3C)cc2s1.O=C(O)C(F)(F)F [Compound 20, 3-amino-N-{(1S,2R)-1-benzyl-2-hydroxy-3-[isobutyl-(2-methylamino-benzothiazole-6-sulfonyl)-amino]-propyl}-2-methyl-benzamide trifluoroacetate] | 5.4 | 8.7 | 5.1 | 8.3 | 66.1 | 158.5 | 
CNc1nc2ccc(S(=O)(=O)N(CC(C)C)C[C@@H](O)[C@H](Cc3ccccc3)NC(=O)c3cccc(O)c3C)cc2s1.O=C(O)C(F)(F)F [Compound 23, N-{(1S,2R)-1-benzyl-2-hydroxy-3-[isobutyl-(2-methylamino-benzothiazole-6-sulfonyl)-amino]-propyl}-3-hydroxy-2-methyl-benzamide trifluoroacetate] | 1.6 | 4.7 | 2.1 | 1.9 | 63.1 | 1380.4 | 6.31
